Measured values from several laboratories, pooled; numbers as filed in NIAID ChemDB.

Common to all: host cell toxicity; cells: PBMC; measure: CC50

Lines come from different laboratories, so protocols vary. CCn: concentration that lowers growth or viability of the cells by n%. An empty or dashed field is not shown.

| smiles | method | value |
|---|---|---|
| Cc1cn([C@H]2CC(N=[N+]=[N-])[C@@H](COP(=O)(OCCC#N)OC[C@H]3CC[C@@H](n4cnc5c(=O)[nH]cnc54)O3)O2)c(=O)[nH]c1=O | - | 47 µM |
| Cc1cn([C@H]2C[C@H](N=[N+]=[N-])[C@@H](CO)O2)c(=O)[nH]c1=O | - | >100 µM |
| CCC(=O)c1ccc(F)c([C@H]2C[C@H]2NC(=O)Nc2ccc(Br)cn2)c1O | - | 61 µM |
| Cc1cn([C@H]2C[C@H](N=[N+]=[N-])[C@@H](CO)O2)c(=O)[nH]c1=O | - | >100 µM |
| O=c1ccn(Cc2c(F)cccc2F)c(=O)n1Cc1c(F)cccc1F | - | 149 µM |
| Nc1nc2c(ncn2[C@@H]2CC[C@H](CO)O2)c(=O)[nH]1 | - | >100 µM |
| COc1ccc(C2CNC(=O)C2)cc1OC1CCCC1 | - | >>100 µM |
| CCCCCCCCCCCCCCCC(=O)OCC(CO)(CO)NC(=O)CNC(=O)CCC(=O)OC[C@H]1O[C@@H](n2cc(C)c(=O)[nH]c2=O)C[C@@H]1N=[N+]=[N-] | - | 27 µM |
| CC[C@@]1(O)C(=O)OCc2c1cc1n(c2=O)Cc2c-1nc1ccccc1c2CO | MTT | 0.06 µg/mL |
| COC(=O)[C@H](Cc1ccccc1)NP(=O)(O)OC[C@H]1O[C@@H](n2cc(C)c(=O)[nH]c2=O)C[C@@H]1N=[N+]=[N-] | - | >100 µM |
| Cc1cn([C@H]2C[C@H](N=[N+]=[N-])[C@@H](CO)O2)c(=O)[nH]c1=O | - | >0.13 µM |
| Cc1ccc(C)n1-c1ccc(C(=O)O)c(O)c1 | trypan blue | 305.6 µg/mL |
| Nc1ncnc2c1ncn2[C@@H]1CC[C@H](CO)O1 | - | >100 µM |
| O=c1ccn([C@@H]2C=C(F)[C@H](CO)S2)c(=O)[nH]1 | MTT | >100 µM |
| CSC[C@H](NC(=O)COc1cccc2cnccc12)C(=O)N[C@@H](Cc1ccccc1)[C@H](O)C(=O)N1CSC(C)(C)[C@H]1C(=O)NC(C)(C)C | - | 49 µM |
| c1ccc(CNCc2ccc(CN3CCCNCCNCCCNCC3)cc2)nc1 | - | >300 µM |
| Nc1nc2c(ncn2[C@@H]2O[C@H](CO)C=C2F)c(=O)[nH]1 | - | >100 µM |
| O=c1ccn([C@H]2CC[C@@H](CO)O2)c(=O)[nH]1 | - | >100 µM |
| Cc1cc(=O)c2ccc(N=C=S)cc2o1 | MTT | 10.4 µM |
| Cc1cn([C@H]2C[C@H]3COC[C@H]3O2)c(=O)[nH]c1=O | trypan blue | >100 µM |
| Nc1ccn([C@H]2CC[C@@H](CO)C2)c(=O)n1 | - | >100 µM |
| COc1cc(Cn2c(=O)ccn(CC#N)c2=O)cc(OC)c1 | - | >415 µM |
| CC[C@H](C)[C@H]1NC(=O)[C@@H](NC(=O)[C@@H](C)N(C)C(=O)[C@@H]2CCCN2C(=O)C(C)=O)[C@@H](C)OC(=O)[C@H](Cc2ccc(OC)cc2)N(C)C(=O)[C@@H]2CCCN2C(=O)[C@H](CC(C)C)NC(=O)[C@@H](C)C(=O)[C@H](C(C)C)OC(=O)C[C@@H]1O | MTT | >46.81 µM |
| Nc1ncnc2c1ncn2[C@H]1C=C(F)[C@@H](CO)S1 | MTT | >100 µM |
| COC(=O)[C@@H](Cc1ccccc1)NC(=O)OC[C@H]1O[C@@H](n2cc(C)c(=O)[nH]c2=O)C[C@@H]1N=[N+]=[N-] | - | >100 µM |
| N#CCn1ccc(=O)n(Cc2cccc(C#N)c2)c1=O | - | >469 µM |
| CNC(=O)[C@H](Cc1ccccc1)NC(=O)OC[C@H]1O[C@@H](n2cc(C)c(=O)[nH]c2=O)C[C@@H]1N=[N+]=[N-] | - | >100 µM |
| CC[C@H](C)[C@H]1NC(=O)[C@@H](NC(=O)[C@@H](CC(C)C)N(C)S(=O)(=O)c2ccc(C)cc2)[C@@H](C)OC(=O)[C@H](Cc2ccc(OC)cc2)N(C)C(=O)[C@@H]2CCCN2C(=O)[C@H](CC(C)C)NC(=O)[C@H](C(C)C)OC(=O)C[C@@H]1O | MTT | >48.02 µM |
| c1cc(CN2CCCNCCNCCCNCC2)ccc1CN1CCCNCCNCCCNCC1 | - | >300 µM |
| CC[C@H](C)[C@H]1NC(=O)[C@@H](NC(=O)OC(C)(C)C)[C@@H](C)OC(=O)[C@H](Cc2ccc(OC)cc2)N(C)C(=O)[C@@H]2CCCN2C(=O)[C@H](CC(C)C)NC(=O)C(C)(C)NC(=O)C[C@@H]1O | MTT | >59.17 µM |
| C#C[C@]1(CO)O[C@@H](n2cnc3c(N)nc(F)nc32)C[C@@H]1O | - | >10 µM |
| CC(C)(C)NC(=O)[C@@H]1CSCN1C(=O)[C@@H](O)[C@H](Cc1ccccc1)NC(=O)[C@H](CC(N)=O)NC(=O)COc1cccc2ccccc12 | - | 77 µM |
| Nc1nc2c(ncn2[C@H]2C=C[C@@H](CO)O2)c(=O)[nH]1 | - | >100 µM |
| Cc1cc(Cl)nc(C)c1C(=O)NCC[C@@H](C)N1CCC(N(Cc2ccsc2)C(=O)NCCCCC(=O)O)CC1 | MTS | >34.6 µM |
| Cc1cn([C@H]2C=C(F)[C@@H](CO)S2)c(=O)[nH]c1=O | MTT | >100 µM |
| Cc1cn([C@@H]2C[C@@H](N=[N+]=[N-])[C@H](COP(=O)(O)OC[C@H]3O[C@@H](n4cc(C)c(=O)[nH]c4=O)C[C@@H]3N=[N+]=[N-])O2)c(=O)[nH]c1=O | - | 16.5 µM |
| Nc1nc(=O)n([C@@H]2C=C(F)[C@H](CO)S2)cc1F | MTT | >100 µM |
| Cc1cn([C@H]2C[C@H](N=[N+]=[N-])[C@@H](CO)O2)c(=O)[nH]c1=O | trypan blue | >100 µM |
| CC[C@H](C)[C@H]1NC(=O)[C@@H](NC(=O)[C@@H](C)NC)[C@@H](C)OC(=O)[C@H](Cc2ccc(OC)cc2)N(C)C(=O)[C@@H]2CCCN2C(=O)[C@H](CC(C)C)NC(=O)[C@@H](C)C(=O)[C@H](C(C)C)OC(=O)C[C@@H]1O | MTT | >55.49 µM |
| Nc1nc2c(ncn2[C@@H]2C=C[C@H](CO)O2)c(=O)[nH]1 | - | >100 µM |
| Cc1cc(SC2=C(O)C[C@@](CCc3ccc(O)cc3)(C(C)C)OC2=O)c(C(C)(C)C)cc1N | - | >100 µM |
| Cc1ccc(Cn2c(=O)ccn(CC#N)c2=O)c(C)c1 | - | >464 µM |
| Cc1ccc(-c2ccc3c(c2)C=C(C(=O)Nc2ccc(C[N+](C)(C)C4CCOCC4)cc2)CCC3)cc1 | - | >20 µM |
| CNC(=O)[C@@H](Cc1ccccc1)NC(=O)OC[C@H]1O[C@@H](n2cc(C)c(=O)[nH]c2=O)C[C@@H]1N=[N+]=[N-] | - | >100 µM |
| Cc1ccc(Cn2c(=O)ccn(CC#N)c2=O)cc1C | - | 434 µM |
| O=c1[nH]c(=O)n([C@@H]2O[C@H](CO)[C@@H](O)[C@@H]2F)cc1C12B3B4B5B6B(B3B1B42)B1B5C61 | - | ≥100 µM |
| Cc1cn([C@H]2C[C@H](N=[N+]=[N-])[C@@H](COP(=O)(O)OC[C@H]3CC[C@@H](n4cnc5c(N)ncnc54)O3)O2)c(=O)[nH]c1=O | - | >100 µM |
| Nc1ccn([C@H]2CC[C@@H](CO)O2)c(=O)n1 | - | >100 µM |
| Nc1nc(=O)n([C@@H]2O[C@H](CO)C=C2F)cc1F | - | >100 µM |
| Nc1nc2c(ncn2[C@@H]2C=C(F)[C@H](CO)S2)c(=O)[nH]1 | MTT | >100 µM |
| C=CCc1ccc(O)c(-c2cc(CC=C)ccc2O)c1 | - | 16.1 µM |
| CCOP(=O)(CO[C@H]1C[C@@H](n2cnc3c(N)ncnc32)C(F)(F)C1)OCC | - | >100 µM |
| Cc1cc(C)nc(Cn2c(=O)ccn(Cc3c(F)cccc3F)c2=O)c1 | - | 144 µM |
| Nc1ncnc2c1ncn2CCOCP(=O)(O)O | - | >100 µM |
| CCc1cn([C@H]2C=C[C@@H](CO)O2)c(=O)[nH]c1=O | - | >100 µM |
| CCC(=O)c1ccc(F)c([C@H]2C[C@H]2NC(=O)Nc2ccc(C#N)cn2)c1O | - | 36 µM |
| Nc1ccn([C@H]2C=C[C@@H](CO)O2)c(=O)n1 | - | 65 µM |
| Cc1ccc2c(c1)c(=O)c(C(=O)Nc1ccc(Cl)cc1)cn2[C@@H]1O[C@H](CO)[C@@H](O)[C@H]1O | XTT | >1000 µg/mL |

A second listing of 5 rows from above:

smiles	method	value
c1ccc(CNCc2ccc(CN3CCCNCCNCCCNCC3)cc2)nc1	-	>300 µM
CC[C@H](C)[C@H]1NC(=O)[C@@H](NC(=O)[C@@H](C)N(C)C(=O)[C@@H]2CCCN2C(=O)C(C)=O)[C@@H](C)OC(=O)[C@H](Cc2ccc(OC)cc2)N(C)C(=O)[C@@H]2CCCN2C(=O)[C@H](CC(C)C)NC(=O)[C@@H](C)C(=O)[C@H](C(C)C)OC(=O)C[C@@H]1O	MTT	>46.81 µM
Nc1ccn([C@H]2C=C[C@@H](CO)O2)c(=O)n1	-	65 µM
Cc1cn([C@H]2C[C@H](N=[N+]=[N-])[C@@H](CO)O2)c(=O)[nH]c1=O	trypan blue	>100 µM
Nc1ncnc2c1ncn2CCOCP(=O)(O)O	-	>100 µM